Laboratory results reported in US10112911B2, “Substituted cyanoguanidines as oral anti-virals” (Abbvie Inc, priority 2012, dated 2018).
Structures can show the parent of a compound that is named as a salt.

The compounds below were run on RSV (Group A, Long Strain) (assay: Cytopathetic effect (CPE) protection antiviral assay, MTT readout). Conditions: therapeutic window, ratio of MTT TD50 to RSV EC50 in HEp-2 cells.
Assay type: cell-based, respiratory syncytial virus (RSV)
Protocol: HEp-2 cells and RSV (Group A, Long Strain) were obtained from the American Type Culture Collection (Manassas, Va.).
A cytopathetic effect (CPE) protection assay was performed to determine the ability of a compound to protect the cells from viral infection and thus the CPE induced by viral infection. 96-Well plates were first seeded with […] per well in Dulbecco's modified Eagle's medium (DMEM) containing 10% fetal bovine serum (FBS). One day after the cells were seeded, they were preincubated with serial dilutions of compounds prepared in 100 μL assay medium (DMEM mixed with F12 medium at a 1:1 ratio, supplemented with 2% FBS and 1 mM sodium pyruvate) for 1 hour at 37° C. 100 μL of assay medium containing 0.2 multiplicity of infection (MOI) of RSV was then added to each well of cells. In addition to wells containing infected cells incubated with compounds, each plate also contained replicates of two kinds of controls: (1) Virus control contained cells infected with 0.2 MOI of RSV in assay medium, (2) Uninfected cell control contained cells incubated with assay medium only. After 4 days of incubation at 37° C., the viability of cells was assessed using MTT (Thiazolyl blue tetrazolium bromide, Sigma). A stock solution of MTT, at a concentration of 4 mg/mL in phosphate-buffered saline, was added to all wells at 25 μL per well. Plates were further incubated for 4 hours, and each well was then treated with 50 μL of a solution containing 20% sodium dodecyl sulfate (SDS) and 0.02 N HCl. After an overnight incubation, the plates were measured on a BioTek® microtiter plate reader at wavelengths of 570 nm and 650 nm. The MTT detection is based on the fact that viable (uninfected) cells can reduce the tetrazolium salts into colored formazan products, which can then be quantitated by spectrometry. Based on the spectrometric absorbance of each sample, the percent of protection from CPE, which is an indicator of protection from viral infection, can be calculated for each compound and the 50% effective concentrations (EC50) can be calculated using a nonlinear regression curve fitting equation provided by the GraphPad Prism® 4 software.
Compounds were tested to determine both their antiviral and toxicity to determine their therapeutic window. Determination of the EC50 and TD50 of these active compounds were repeated one additional time to confirm the window.

Compound | Window (TD50/EC50)
Cc1ccc2oc(N3CCN(C(=NC#N)Nc4ccccc4C)C(C(C)C)C3)nc2c1 (stereo not shown) [Example 1.7, N′-cyano-2-isopropyl-4-(5-methyl-1,3-benzoxazol-2-yl)-N-(2-methylphenyl)piperazine-1-carboximidamide] | >12
Cc1ccccc1NC(=NC#N)N1CCN(c2nc3ccccc3s2)CC1C(C)C (stereo not shown) [Example 1.6, 4-(1,3-benzothiazol-2-yl)-N′-cyano-2-isopropyl-N-(2-methylphenyl)piperazine-1-carboximidamide] | >5.3
Cc1ccccc1NC(=NC#N)N1CCN(c2nc3ccccc3[nH]2)CC1C(C)C (stereo not shown) [Example 1.9, 4-(1H-benzimidazol-2-yl)-N′-cyano-2-isopropyl-N-(2-methylphenyl)piperazine-1-carboximidamide] | >24
COC(=O)c1cnc(N2CCN(C(=NC#N)Nc3ccccc3Cl)C(C(C)C)C2)cn1 (stereo not shown) [Example 1.2, methyl 5-{4-[N-(2-chlorophenyl)-N′-cyanocarbamimidoyl]-3-isopropylpiperazin-1-yl}pyrazine-2-carboxylate] | >88
Cc1ccccc1NC(=NC#N)N1CCN(c2nccnc2C#N)CC1C(C)C (stereo not shown) [Example 1.1, N′-cyano-4-(3-cyanopyrazin-2-yl)-2-isopropyl-N-(2-methylphenyl)piperazine-1-carboximidamide] | >112
Cc1ccccc1NC(=NC#N)N1CCN(c2ncnc3[nH]ccc23)CC1C(C)C (stereo not shown) [Example 1.11, N′-cyano-2-isopropyl-N-(2-methylphenyl)-4-(7H-pyrrolo[2,3-d]pyrimidin-4-yl)piperazine-1-carboximidamide] | >52
Cc1ccccc1NC(=NC#N)N1CCN(c2ncnc3ccccc23)CC1C(C)C (stereo not shown) [Example 1.8, N′-cyano-2-isopropyl-N-(2-methylphenyl)-4-(quinazolin-4-yl)piperazine-1-carboximidamide] | >333
Cc1ccccc1N/C(=N/C#N)N1CCN(c2cnc3ccccc3n2)CC1C(C)C (stereo not shown) [Example 1.3, N′-cyano-2-isopropyl-N-(2-methylphenyl)-4-(quinoxalin-2-yl)piperazine-1-carboximidamide trifluoroacetate] | >128
Cc1ccccc1NC(=NC#N)N1CCN(c2nc3ccccc3c(=O)[nH]2)CC1C(C)C (stereo not shown) [Example 1.10, N′-cyano-2-isopropyl-N-(2-methylphenyl)-4-(4-oxo-3,4-dihydroquinazolin-2-yl)piperazine-1-carboximidamide] | >233
Cc1ccccc1N/C(=N/C#N)N1CCN(c2cnc3cc(F)ccc3n2)CC1C(C)C (stereo not shown) [Example 1.54, N′-cyano-4-(6-fluoroquinoxalin-2-yl)-2-isopropyl-N-(2-methylphenyl)piperazine-1-carboximidamide] | >113
Cc1ccccc1NC(=NC#N)N1CCN(c2nc3cccc(Cl)c3o2)CC1C(C)C (stereo not shown) [Example 1.5, 4-(7-chloro-1,3-benzoxazol-2-yl)-N′-cyano-2-isopropyl-N-(2-methylphenyl)piperazine-1-carboximidamide] | >12.3
CCC1CN(c2cnc3ccccc3n2)CCN1/C(=N\C#N)Nc1ccccc1C (stereo not shown) [Example 1.44, N′-cyano-2-ethyl-N-(2-methylphenyl)-4-(quinoxalin-2-yl)piperazine-1-carboximidamide] | 351
Cc1ccccc1NC(=NC#N)N1CCN(c2nc3ccccc3o2)CC1C(C)C (stereo not shown) [Example 1.4, 4-(1,3-benzoxazol-2-yl)-N′-cyano-2-isopropyl-N-(2-methylphenyl)piperazine-1-carboximidamide] | 25
